Results of unrelated studies side by side (data: NIAID ChemDB).

Shared fields: tests on isolated targets; species: HIV-1; protein: Protease

An empty or dashed field is not shown. Neighbouring rows are from separate reports. Fold resistance has wild type as its base. Inhibition is in % at the dose shown (toxicity tests: loss of growth or viability). ICn is the concentration giving n% inhibition.

structure,read-out,tested at,changes,strain or isolate,read by,result
CC(C)[C@H](NC(=O)NCc1ccccc1)C(=O)N[C@@H](Cc1ccccc1)C(O)[C@H](Cc1ccccc1)NC(=O)[C@@H](NC(=O)NCc1ccccc1)C(C)C,IC50,-,-,-,fluorescence,<0.005 µM
CC[C@H](C)C(NC(=O)[C@H](Cc1ccccc1)NCC[C@H](Cc1ccccc1)NC(=O)OC(C)(C)C)C(=O)N[C@@H](Cc1ccccc1)C(N)=O,Ki,-,-,-,absorbance,0.07 µM
CC1=CC(C)(C)Nc2ccc(OC(=O)c3sc4cc([N+](=O)[O-])ccc4c3Cl)cc21,inhibition,150 µM,-,-,-,43.07%
Cc1ccc(Cl)cc1N1CCN(Cc2cn([C@@H](Cc3ccccc3)[C@H](Cc3ccccc3)NC(=O)OC3CCC3)nn2)CC1,IC50,-,-,-,fluorescence,<5 µM
CC(C)[C@H](NC(=O)OCCN1CCCC1)C(=O)N[C@@H](Cc1ccccc1)[C@@H](O)[C@H](Cc1ccccc1)NC(=O)[C@@H](NC(=O)OCc1ccccc1)C(C)C,inhibition,0.005 µM,-,-,fluorescence,31%
O=C1N(Cc2cccc(CO)c2)[C@H](Cc2ccccc2)[C@H](O)[C@@H](O)[C@@H](Cc2ccccc2)N1Cc1cccc(-c2ccn[nH]2)c1,Ki,-,-,RF,-,0.00016 µM
CC[C@H](C)[C@H](NC(=O)[C@@H](Cc1ccccc1)C[C@@H](O)[C@H](Cc1ccccc1)NC(=O)OC(C)(C)C)C(=O)N[C@@H](Cc1ccccc1)C(N)=O,Ki,-,-,-,absorbance,0.0018 µM
CC(C)[C@H](NC(=O)OCc1ccccn1)C(=O)NC(Cc1ccccc1)C(O)C(F)(F)C(Cc1ccccc1)NC(=O)OC(C)(C)C,IC50,-,-,-,fluorescence,~0.01 µM
O=C1N(Cc2cccc(-c3cn[nH]c3)c2)[C@H](Cc2ccccc2)[C@H](O)[C@@H](O)[C@@H](Cc2ccccc2)N1Cc1cccc(-c2cn[nH]c2)c1,Ki,-,-,RF,fluorescence,0.00062 µM
Cc1cc(SC2=C(O)C[C@@](CCc3ccc(O)cc3)(C(C)C)OC2=O)c(C(C)(C)C)cc1CO,fold resistance,-,PR-D30N,-,HPLC / absorbance,4.3
O=C(Nc1ccc2[nH]c(=S)sc2c1)c1ccccc1,inhibition,150 µM,-,-,-,34.86%
O=C(N[C@@H](Cc1ccccc1)[C@H](Cc1ccccc1)n1cc(CN2CCC(O)(c3cccc(C(F)(F)F)c3)CC2)nn1)OC1CCCC1,IC50,-,-,-,fluorescence,>5 µM
Cc1cc(SC2=C(O)C[C@@](CCc3ccc(N)cc3)(C(C)C)OC2=O)c(C(C)(C)C)cc1CO,fold resistance,-,PR-V82F,-,HPLC / absorbance,2.5
Cc1cccc(N2CCN(Cc3cn([C@@H](Cc4ccccc4)[C@H](Cc4ccccc4)NC(=O)OC4CCCC4)nn3)CC2C)c1,IC50,-,-,-,fluorescence,<5 µM
CC(C(=O)O)C(C)C(=O)N[C@@H](Cc1ccccc1)[C@H](O)C(=O)N1CSC[C@H]1C(=O)NC(C)(C)C,inhibition,31.9 µM,-,-,-,0.05%
CC(=O)N[C@@H](CO)C(=O)N[C@@H](CC(C)C)C(=O)N[C@@H](CC(N)=O)C(=O)N[C@@H](Cc1ccccc1)B(O)O,fold resistance,-,PR-M46I V82F I84V L90M,-,HPLC,18.75
CC1=CC(C)(C)Nc2ccc(OS(=O)(=O)Cc3ccccc3)cc21,inhibition,150 µM,-,-,-,40.41%
CC(C)(C)NC(=O)[C@@H]1CSCN1C(=O)[C@@H](O)[C@H](Cc1ccccc1)NC(=O)CC(C)(C)C(=O)O,inhibition,19.7 µM,-,-,-,0.05%
O=C1N(Cc2cccc(-c3ncn[nH]3)c2)[C@H](Cc2ccccc2)[C@H](O)[C@@H](O)[C@@H](Cc2ccccc2)N1Cc1cccc(-c2ncn[nH]2)c1,Ki,-,-,RF,-,0.000052 µM
CC1=CC(C)(C)Nc2ccc(OC(=O)c3ccc4c(c3)OCO4)cc21,inhibition,150 µM,-,-,-,36.42%
Cc1ccccc1-n1nnc(C(c2ccccc2)(c2ccccc2)n2ccnc2)c1C,inhibition,2 µg/mL,-,-,substrate cleavage / fluorescence,25%
CNC(=O)[C@@H](NC(=O)[C@H](OCc1ccccc1)[C@H](O)[C@@H](O)[C@@H](OCc1ccccc1)C(=O)N[C@H]1c2ccccc2C[C@H]1O)C(C)C,fold resistance,-,PR-I84V,-,-,6.3
CC(C)[C@H](NC(=O)OCc1ccccc1)C(=O)N[C@@H](Cc1ccccc1)C(=O)C(F)(F)CCc1ccccc1,inhibition,0.005 µM,-,-,fluorescence,51%
CC(C)[C@H](NC(=O)c1ccc2ccccc2n1)C(=O)N[C@@H](Cc1ccccc1)[C@H](O)CN1CC[C@@H](SCc2cccnc2)C[C@H]1C(=O)NC(C)(C)C,fold resistance,-,PR-I84V,-,fluorescence,15.9
CC(C)(C)OC(=O)N[C@@H](Cc1ccccc1)[C@H](O)C[C@H](Cc1ccccc1)C(=O)N[C@@H](CCC(N)=O)C(=O)N[C@@H](Cc1ccccc1)C(N)=O,Ki,-,-,-,absorbance,0.019 µM
O=C1N(Cc2ccc(CO)cc2)[C@H](COc2ccccc2)[C@H](O)[C@@H](O)[C@@H](COc2ccccc2)N1Cc1ccc(CO)cc1,fold resistance,-,PR-L10F I84V PR-L90M,IIIB,fluorescence,0.739
CC(C)[C@H](NC(=O)OCc1ccccc1)C(=O)N[C@@H](Cc1ccccc1)C(O)[C@H](Cc1ccccc1)NC(=O)[C@@H](NC(=O)OC(C)(C)C)C(C)C,IC50,-,-,-,fluorescence,<0.1 µM
CC(C)(C)OC(=O)N[C@@H](Cc1ccccc1)[C@H](O)C[C@@H](Cc1ccccc1)C(=O)N[C@@H](CCC(=O)O)C(=O)N[C@@H](Cc1ccccc1)C(N)=O,Ki,-,-,-,absorbance,0.0006 µM
Cc1cc(=O)n2[nH]c(NCc3cccs3)nc2n1,inhibition,150 µM,-,-,-,36.41%
CN1[C@H](COc2ccccc2)[C@H](O)[C@@H](O)[C@@H](COc2ccccc2)N(C)S1(=O)=O,fold resistance,-,PR-I84V,-,-,28.2
CCCC(=O)c1cccc(CN2C(=O)N(Cc3cccc(C(=O)CCC)c3)[C@H](Cc3ccccc3)[C@H](O)[C@@H](O)[C@H]2Cc2ccccc2)c1,Ki,-,-,RF,-,0.0014 µM
CC(C)(C)OC(=O)N[C@@H](Cc1ccccc1)[C@@H](O)C[C@@H](Cc1ccccc1)C(=O)N[C@@H](CCC(N)=O)C(=O)N[C@@H](Cc1ccccc1)C(N)=O,Ki,-,-,-,absorbance,0.00002 µM
Cc1ccc(Cl)cc1N1CCN(Cc2cn([C@@H](Cc3ccccc3)[C@H](Cc3ccccc3)NC(=O)NC3CCCCC3)nn2)CC1,IC50,-,-,-,fluorescence,>5 µM
CC(C)(C)OC(=O)N[C@@H](Cc1ccccc1)[C@@H](O)C[C@@H](Cc1ccccc1)C(=O)N[C@@H](CCC(=O)O)C(=O)N[C@@H](Cc1ccccc1)C(N)=O,Ki,-,-,-,absorbance,0.00002 µM
O=S1(=O)N(Cc2ccc(CO)cc2)[C@H](COc2ccccc2)[C@H](O)[C@@H](O)[C@@H](COc2ccccc2)N1Cc1ccc(CO)cc1,fold resistance,-,PR-I84V,-,-,14.8
O=C1N(Cc2cccc(-c3ncc[nH]3)c2)[C@H](Cc2ccccc2)[C@H](O)[C@@H](O)[C@@H](Cc2ccccc2)N1Cc1cccc(-c2ncc[nH]2)c1,Ki,-,-,RF,fluorescence,0.00016 µM
Cc1cc(=O)n2[nH]c(N3C(=O)[C@H]4CCCC[C@H]4C3=O)nc2n1,inhibition,150 µM,-,-,-,32.51%
CC(C)[C@H](NC(=O)OCc1ccccc1)C(=O)N[C@@H](Cc1ccccc1)[C@H](O)[C@H](Cc1ccccc1)NC(=O)[C@@H](NC(=O)OCC1CCCCN1C)C(C)C,inhibition,0.05 µM,-,-,fluorescence,49%
CC[C@H](C)[C@H](NC(=O)[C@@H](Cc1ccccc1)C[C@H](O)[C@H](Cc1ccccc1)NC(=O)OC(C)(C)C)C(=O)N[C@@H](Cc1ccccc1)C(N)=O,Ki,-,-,-,absorbance,0.0007 µM
O=S1(=O)N(Cc2cccc(-c3cccs3)c2)[C@H](COc2ccccc2)[C@H](O)[C@@H](O)[C@@H](COc2ccccc2)N1Cc1cccc(-c2cccs2)c1,fold resistance,-,PR-V82A,-,-,17.7
CC(C)CN(C[C@@H](O)[C@H](Cc1ccccc1)NC(=O)[C@H](CC(N)=O)NC(=O)c1ccc2ccccc2n1)C(=O)NC(C)(C)C,fold resistance,-,PR-A71T V82A,-,HPLC,1.5
CC[C@H](C)[C@H](NC(=O)OCc1ccccc1)C(=O)N[C@@H](Cc1ccccc1)C(O)[C@H](Cc1ccccc1)NC(=O)OC(C)(C)C,IC50,-,-,-,fluorescence,>0.01 µM
CNC(=O)CN1[C@H](COc2ccccc2)[C@H](O)[C@@H](O)[C@@H](COc2ccccc2)N(CC(=O)NC)S1(=O)=O,fold resistance,-,PR-V82A,-,-,4.4

A second listing of 4 rows from above:

structure,read-out,tested at,changes,strain or isolate,read by,result
CC(C)(C)OC(=O)N[C@@H](Cc1ccccc1)[C@H](O)C[C@H](Cc1ccccc1)C(=O)N[C@@H](CCC(N)=O)C(=O)N[C@@H](Cc1ccccc1)C(N)=O,Ki,-,-,-,absorbance,0.019 µM
CC(C)[C@H](NC(=O)OCc1ccccn1)C(=O)NC(Cc1ccccc1)C(O)C(F)(F)C(Cc1ccccc1)NC(=O)OC(C)(C)C,IC50,-,-,-,fluorescence,~0.01 µM
CC(C)(C)OC(=O)N[C@@H](Cc1ccccc1)[C@@H](O)C[C@@H](Cc1ccccc1)C(=O)N[C@@H](CCC(N)=O)C(=O)N[C@@H](Cc1ccccc1)C(N)=O,Ki,-,-,-,absorbance,0.00002 µM
O=C(Nc1ccc2[nH]c(=S)sc2c1)c1ccccc1,inhibition,150 µM,-,-,-,34.86%